Compound potency records, mixed from different reports. Data source: NIAID ChemDB in PubChem.

All rows: tests in culture; organism: Mycobacterium tuberculosis

Percent inhibition refers to the dose given; in toxicity tests it is the harm to the cells.

smiles | strain or isolate | changes | method | endpoint | dose | value
NNC(=O)c1ccncc1 | H37Ra | - | - | Median MIC | - | 0.05 µg/mL
Cc1ccc(/C=N/Nc2ccc([N+](=O)[O-])cn2)cc1 | H37Rv | - | BACTEC | MIC bound | - | >12.5 µg/mL
O=C(/C=C/c1ccc(F)cc1)Oc1ccc(/C=C2\CCCCC2=O)cc1 | H37Rv | - | - | EC50 | - | <12.5 µg/mL
Nc1ccc(C(=NNc2ccc([N+](=O)[O-])cn2)c2ccc(N)cc2)cc1 | H37Rv | - | BACTEC | MIC | - | ≥12.5 µg/mL
C[C@]1(COc2ccc(N3CCN(Cc4cc5cc(OC(F)(F)F)ccc5o4)CC3)cc2)Cn2cc([N+](=O)[O-])nc2O1 | H37Rv | - | - | MIC | - | 0.012 µg/mL
CCN1C(=O)C(C)S/C1=N/N=C1\C(=O)Nc2ccc(Br)cc21 | H37Rv | - | - | EC50 | - | >12 µg/mL
O=c1c2ccccc2sc2c1c(N(CCO)CCO)cc1ccccc12 | H37Rv | - | BACTEC | MIC bound | - | >12.5 µg/mL
Cc1ccc2[nH]c(O)c(N=NC(=S)Nc3ccc(F)cc3)c2c1 | H37Rv | - | broth dilution / resazurin | EC90 | - | 1.587 µg/mL
CCOc1ccc(-n2c(-c3ccc(OC)cc3)cs/c2=N\NC(=O)COc2cnccn2)cc1 | H37Rv | - | - | MIC | - | 8.7 µg/mL
CO[C@H]1/C=C/O[C@@]2(C)Oc3c(C)c(O)c4c(O)c(c(/C=N/OCc5ccccc5)c(O)c4c3C2=O)NC(=O)/C(C)=C\C=C\[C@H](C)[C@H](O)[C@@H](C)[C@@H](O)[C@@H](C)[C@H](OC(C)=O)[C@@H]1C | H37Rv | - | - | MIC | - | 0.5 µg/mL
CNC(=S)N/N=C(\C)CCc1c(C)nn(C(=S)NC)c1C | H37Rv | - | - | inhibition | 6.25 µg/mL | 5%
C=CCNC(=S)N=Nc1c(O)[nH]c2ccc(Br)cc12 | H37Rv | - | - | MIC | - | >12.5 µg/mL
CO[C@H]1/C=C/O[C@@]2(C)Oc3c(C)c(O)c4c(O)c(c(C=NN5CCCCC5)c(O)c4c3C2=O)NC(=O)/C(C)=C\C=C\[C@H](C)[C@H](O)[C@@H](C)[C@@H](O)[C@@H](C)[C@H](OC(C)=O)[C@@H]1C | H37Rv | - | - | MIC | - | 0.05 µg/mL
NNC(=O)c1ccco1 | H37Rv | - | BACTEC | MIC bound | - | >12.5 µg/mL
CN(C)CC1CCC/C(=C\c2ccc(OC(=O)/C=C/c3ccc(Cl)c(Cl)c3)cc2)C1=O | H37Rv | - | - | EC50 | - | <12.5 µg/mL
CO[C@H]1/C=C/O[C@@]2(C)Oc3c(C)c(O)c4c(O)c(c(/C=N/N5CCN(C6CCCC6)CC5)c(O)c4c3C2=O)NC(=O)/C(C)=C\C=C\[C@H](C)[C@H](O)[C@@H](C)[C@@H](O)[C@@H](C)[C@H](OC(C)=O)[C@@H]1C | H37Rv | - | - | Median MIC | - | 0.006 µg/mL
CN1C(=O)N(C)C2(C(=O)N(C)C(=S)N2C)N(C)C1=O | H37Rv | - | resazurin | inhibition | 6.25 µg/mL | 12%
O=C(COc1cnccn1)N/N=c1\scc(-c2ccc(F)cc2)n1-c1ccc(Cl)cc1 | H37Rv | - | - | MIC | - | 17 µg/mL
CC(=O)N=C1N(/C=C2\C(=O)Oc3ccccc3C2=O)C(=O)/C(=C/c2ccccc2Cl)N1C | H37Rv | - | BACTEC | MIC bound | - | >12.5 µg/mL
C[C@H]1COc2c(N3CCN(C)CC3)c(F)cc3c(=O)c(C(=O)O)cn1c23 | 483-8 | - | - | MIC | - | 0.5 µg/mL
Oc1c(N=NC(=S)Nc2ccccc2)c2cc(OC(F)(F)F)ccc2n1CN1CCOCC1 | H37Rv | - | broth dilution / resazurin | EC50 | - | 4.847 µg/mL
Cc1ccc(/C=C/C(=O)Oc2ccc(/C=C3\CCC/C(=C\c4ccc(OC(=O)/C=C/c5ccc(C)cc5)cc4)C3=O)cc2)cc1 | H37Rv | - | - | EC50 | - | >12.5 µg/mL
CC(N[C@H]1CS(=O)(=O)C[C@@H]1S(=O)(=O)c1ccc(F)cc1)c1ccccc1 | Clinical isolate | - | resazurin | MIC | - | 1 µg/mL
COc1ccc(CN=C2NC(=O)/C(=C/c3ccccc3Cl)N2)cc1 | H37Rv | - | - | MIC | - | >6.25 µg/mL
C=CCC1(C(C)C(OC(C)=O)c2ccc3c(c2)OCO3)CC(OC)C=CC1=O | H37Rv | - | BACTEC | MIC | - | ≥12.5 µg/mL
Cc1ccc(N2C(=O)C(C)S/C2=N/N=C2\C(=O)Nc3ccc(Br)cc32)cc1 | H37Rv | - | - | MIC | - | >12.5 µg/mL
Cc1cc2c(c3c1c(=O)c1ccccc1n3C)C=CC(C)(C)O2 | H37Rv | - | BACTEC | MIC bound | - | ≤12.5 µg/mL
Oc1[nH]c2ccc(OC(F)(F)F)cc2c1N=NC(=S)NC1CCCCC1 | H37Rv | - | broth dilution / resazurin | EC90 | - | >100 µg/mL
CN(c1ccc(OC[C@@]2(C)Cn3cc([N+](=O)[O-])nc3O2)cc1)C1CCN(c2ccc(OC(F)(F)F)cc2)CC1 | H37Rv | - | - | MIC | - | 0.024 µg/mL
CO[C@H]1/C=C/O[C@@]2(C)Oc3c(C)c(O)c4c(O)c(c(/C=N/c5nccs5)c(O)c4c3C2=O)NC(=O)/C(C)=C\C=C\[C@H](C)[C@H](O)[C@@H](C)[C@@H](O)[C@@H](C)[C@H](OC(C)=O)[C@@H]1C | H37Rv | - | - | MIC | - | 5 µg/mL
Cc1cccc(OCC(=O)N=Nc2c(O)n(CN3CCOCC3)c3ccccc23)c1 | H37Rv | - | - | MIC | - | >12.5 µg/mL
O=C1NC(=Nc2ccccc2Cl)N/C1=C\c1ccc(Cl)cc1Cl | H37Rv | - | - | MIC | - | >6.25 µg/mL
CCOc1ccc(S(=O)(=O)[C@H]2CS(=O)(=O)C[C@@H]2NCC(C)C)cc1 | Clinical isolate | - | resazurin | MIC | - | 2 µg/mL
Oc1c(N2CCOCC2)cc(-c2cc(N3CCOCC3)c(O)c3ccccc23)c2ccccc12 | H37Rv | - | BACTEC | MIC bound | - | >12.5 µg/mL
CCNC(=S)N=Nc1c(O)[nH]c2ccc(Br)cc12 | H37Rv | - | - | EC50 | - | <12 µg/mL
NC[C@H]1O[C@H](O[C@H]2[C@H](O)[C@@H](O[C@H]3O[C@H](CO)[C@@H](O)[C@H](N)[C@H]3O)[C@H](N)C[C@@H]2N)[C@H](O)[C@@H](O)[C@@H]1O | TN4800 (W33) | - | - | MIC | - | >256 µg/mL
Cc1ccc2c(c1)c(N=NC(=S)Nc1ccc(Cl)cc1)c(O)n2C | H37Rv | - | broth dilution / resazurin | EC90 | - | >100 µg/mL
Cc1cc(=O)c2c(O)c3c(O)cc(=O)c4c3c3c(cc(O)c1c23)C(C)(C)C=4O | 18b | - | resazurin | MIC | - | 0.5 µg/mL
O=C1NC(=NCc2ccccc2)N/C1=C\c1ccccc1Cl | H37Rv | - | - | inhibition | 12.5 µg/mL | 20%
CO[C@H]1/C=C/O[C@@]2(C)Oc3c(C)c(O)c4c(O)c(c(/C=N/N5CCN(C)CC5)c(O)c4c3C2=O)NC(=O)/C(C)=C\C=C\[C@H](C)[C@H](O)[C@@H](C)[C@@H](O)[C@@H](C)[C@H](OC(C)=O)[C@@H]1C | H37Ra | - | - | Median MIC | - | 0.0047 µg/mL
CCCCNC(=O)Oc1ccc2c(c1)OC(=O)C2 | 18b | - | resazurin | MIC | - | 8 µg/mL
O=C1NC(Nc2cccc(Cl)c2)=N/C1=C\c1c(Cl)cccc1Cl | H37Rv | - | - | inhibition | 12.5 µg/mL | 0%
CCCCNC(=S)S | KM-R | - | - | MIC | - | >12.5 µg/mL
CO[C@H]1/C=C/O[C@@]2(C)Oc3c(C)c(O)c4c(O)c(c(CO)c(O)c4c3C2=O)NC(=O)/C(C)=C\C=C\[C@H](C)[C@H](O)[C@@H](C)[C@@H](O)[C@@H](C)[C@H](OC(C)=O)[C@@H]1C | H37Rv | - | - | MIC | - | >5 µg/mL
CCCCN1C(=O)C(C)S/C1=N\N=C1/C(=O)Nc2ccccc21 | H37Rv | - | - | inhibition | 12 µg/mL | 14%
O=C(N/N=C/c1ccc(O)cc1O)C(=O)N/N=C/c1ccc(O)cc1O | H37Rv | - | BACTEC | MIC | - | ≥12.5 µg/mL
CCCCn1c(-c2ccc(F)cc2)cs/c1=N\NC(=O)COc1cnccn1 | H37Rv | - | - | MIC | - | 15 µg/mL
S=C1N(/N=C/c2c3ccccc3cc3ccccc23)C(=Nc2ccccc2)C(=Nc2ccccc2)N1c1ccccc1 | H37Rv | - | BACTEC | inhibition | 12.5 µg/mL | 0%
COc1ccc2nc(C(F)(F)C(F)(F)F)c(C#N)c(N)c2c1 | 18b | - | resazurin | MIC | - | 2 µg/mL
O=C(CSc1nc(-c2ccccc2)c(-c2ccccc2)[nH]1)N=Nc1c(O)[nH]c2ccc(Br)cc12 | H37Rv | - | - | MIC | - | >12.5 µg/mL
COC(=O)C1=NOC2(CC(=O)N(c3ccc(F)cc3)C2=O)C1 | 18b | - | resazurin | MIC | - | 16 µg/mL
CC(C)Cn1c(-c2ccc(O)cc2)cs/c1=N\NC(=O)COc1cnccn1 | H37Rv | - | - | MIC | - | 12 µg/mL
O=S(=O)(NCCC1=CCCCC1)c1ccc(Cl)s1 | 18b | - | resazurin | MIC | - | 16 µg/mL
CN(Cc1ccccc1C(F)(F)F)C1CCN(c2ccc(OC[C@@]3(C)Cn4cc([N+](=O)[O-])nc4O3)cc2)CC1 | H37Rv | - | - | MIC | - | <0.008 µg/mL
CCOC(=O)N(c1ccccc1)c1cc(=O)n2ccccc2n1 | H37Rv | - | resazurin | MIC bound | - | >6.25 µg/mL
CC(=O)NC[C@H]1CN(c2ccc(N3CCOCC3)c(F)c2)C(=O)O1 | Clinical isolate BRF 14 | INH resistant | resazurin | MIC | - | 0.25 µg/mL
CCCc1ccc(NC2CCN(c3ccc(OC[C@@]4(C)Cn5cc([N+](=O)[O-])nc5O4)cc3)CC2)cc1 | H37Rv | - | - | MIC | - | 0.024 µg/mL
C=CCN=C(N=Nc1c(O)[nH]c2ccccc12)SCC(=O)c1ccccc1 | H37Rv | - | - | MIC | - | >12.5 µg/mL
O=C1/C(=C/c2ccc(OC(=O)c3ccccc3)cc2)CCC/C1=C\c1ccc(OC(=O)c2ccccc2)cc1 | H37Rv | - | - | EC50 | - | >12.5 µg/mL
CC(C)C1C=C2CCC3C(C)(C(=O)O)CCCC3(C)C2CC1 | H37Rv | - | BACTEC | MIC bound | - | ≤128 µg/mL
C[C@@H]1CN(c2c(F)c(N)c3c(=O)c(C(=O)O)cn(C4CC4)c3c2F)C[C@H](C)N1 | H37Ra | - | - | Mean MIC | - | 0.084 µg/mL
CN(C)CC1CCC/C(=C\c2ccc(OC(=O)c3ccc(Cl)cc3)cc2)C1=O | H37Rv | - | - | inhibition | 12.5 µg/mL | 99%
CC/C(=C(\c1ccccc1)c1ccc(OCCN(C)C)cc1)c1ccccc1 | XDR | - | resazurin | MIC | - | 6.25–12.5 µg/mL
O.O=C(CSc1nc2ccccc2c(=O)n1-c1ccccc1)N=Nc1c(O)n(CN2CCOCC2)c2ccccc12 | H37Rv | - | - | MIC | - | >12.5 µg/mL
C=c1[nH]c(=O)c(=C)[nH]c1=O | H37Rv | - | BACTEC | MIC bound | - | >12.5 µg/mL
Cc1cccc(C2C(=S)NC(=O)C3=C2NCN(CCc2ccccc2)C3)n1 | Clinical isolate | - | resazurin | MIC | - | 16 µg/mL
CNC(=S)N=Nc1c(O)[nH]c2ccc(OC(F)(F)F)cc12 | H37Rv | - | broth dilution / resazurin | EC50 | - | 1.311 µg/mL
CO[C@H]1/C=C/O[C@@]2(C)Oc3c(C)c(O)c4c(O)c(c(/C=N/NC(=O)c5ccncc5)c(O)c4c3C2=O)NC(=O)/C(C)=C\C=C\[C@H](C)[C@H](O)[C@@H](C)[C@@H](O)[C@@H](C)[C@H](OC(C)=O)[C@@H]1C | H37Rv | - | - | MIC | - | 5 µg/mL
CCCCC1(C(C#N)C#N)c2ccccc2-c2ccccc21 | H37Rv | - | BACTEC | MIC bound | - | >12.5 µg/mL
C[C@]1(COc2ccc(N3CCC(Oc4ccc(OC(F)(F)F)cc4)CC3)cc2)Cn2cc([N+](=O)[O-])nc2O1 | 49 strains (SM-susceptible) | - | - | MIC90 | - | 0.012 µg/mL
O=C(CC(=O)N1N=C(N(c2ccccc2)c2ccccc2)CC1c1ccccc1)Nc1ccccc1 | H37Rv | - | resazurin | MIC bound | - | >6.25 µg/mL
CC(=O)Nc1ccc(/C=N/NC(N)=S)cc1 | Isolate C drug-resistant | - | - | MIC | - | 30 µg/mL
N=C1C=CC(=C(c2ccc(N)cc2)c2ccc(N)cc2)C=C1 | H37Rv | - | resazurin | MIC bound | - | >6.25 µg/mL
Cc1ccc(-c2cs/c(=N\NC(=O)COc3cnccn3)n2-c2ccc(Cl)cc2Cl)cc1 | H37Rv | - | - | MIC | - | 11.5 µg/mL
CC(OC1C(N)C(O)OC(CO)C1O)C(=O)O | H37Rv | - | BACTEC | inhibition | 12.5 µg/mL | -2%
Oc1[nH]c2ccc(OC(F)(F)F)cc2c1N=NC(=S)Nc1ccc(Br)cc1 | H37Rv | - | broth dilution / resazurin | EC50 | - | 1.341 µg/mL

A second listing of 8 rows from above:

smiles,strain or isolate,changes,method,endpoint,dose,value
CC(C)Cn1c(-c2ccc(O)cc2)cs/c1=N\NC(=O)COc1cnccn1,H37Rv,-,-,MIC,-,12 µg/mL
C[C@]1(COc2ccc(N3CCC(Oc4ccc(OC(F)(F)F)cc4)CC3)cc2)Cn2cc([N+](=O)[O-])nc2O1,49 strains (SM-susceptible),-,-,MIC90,-,0.012 µg/mL
O=C1NC(Nc2cccc(Cl)c2)=N/C1=C\c1c(Cl)cccc1Cl,H37Rv,-,-,inhibition,12.5 µg/mL,0%
C=c1[nH]c(=O)c(=C)[nH]c1=O,H37Rv,-,BACTEC,MIC bound,-,>12.5 µg/mL
Cc1ccc2[nH]c(O)c(N=NC(=S)Nc3ccc(F)cc3)c2c1,H37Rv,-,broth dilution / resazurin,EC90,-,1.587 µg/mL
O=C1NC(=NCc2ccccc2)N/C1=C\c1ccccc1Cl,H37Rv,-,-,inhibition,12.5 µg/mL,20%
Oc1c(N2CCOCC2)cc(-c2cc(N3CCOCC3)c(O)c3ccccc23)c2ccccc12,H37Rv,-,BACTEC,MIC bound,-,>12.5 µg/mL
O=S(=O)(NCCC1=CCCCC1)c1ccc(Cl)s1,18b,-,resazurin,MIC,-,16 µg/mL

MIC bound: limit read from a one-dose screen. Lines come from different laboratories, so protocols vary. An empty or dashed field is not shown. ECn: concentration that inhibits the pathogen or its effect by n%. A number after MIC or MFC names an inhibition level or a share of isolates. Two numbers with a dash give a range or band.